Pooled drug test results. Numbers come from NIAID ChemDB, via PubChem.

Shared fields: growth or infection tests; agent: Candida krusei

Blank or dashed fields: not listed here. Rows are shuffled and stem from different studies. MIC50, MIC90 and the like: level of inhibition, or share of isolates inhibited.

smiles | conditions | strain or isolate | read by | read-out | result
CC1CC(=O)N(c2ccc(Cl)cc2)C1=O |  | CCC 117-2000 | broth dilution / turbidity | MIC | 125 µg/mL
CCCCCCCCCCCCCCCC(=O)NC(CCCCN)C(=O)NC(CCCCN)C(N)=O |  | 4273 | broth dilution | MIC | 1 µg/mL
CCOc1ccc2nc3cc(N=C4NC(=O)/C(=C\c5ccc([N+](=O)[O-])o5)S4)ccc3c(N)c2c1 |  |  | broth dilution | MFC | 250 µg/mL
CC(C)C[C@H](N)C(=O)O |  | ATCC 6258 | broth dilution | MFC100 | >72000 µg/mL
CCCCCCCCCn1cc[n+](COCCCOC[n+]2ccn(CCCCCCCCC)c2)c1 |  | ATCC 6258 | agar diffusion | MIC100 | 9 µM
c1ccc(C(c2ccccc2)n2cncn2)cc1 |  |  | agar | MIC90 | >256 µg/mL
CC(C)CC(=O)C(=O)O |  | D 206 B | broth dilution | MFC100 | >72000 µg/mL
c1ccc(C(c2ccccc2)n2nnc3ccccc32)cc1 |  |  | agar | MIC90 | >256 µg/mL
CCCNS(=O)(=O)c1ccc(CN(C)CC(O)(Cn2cncn2)c2ccc(F)cc2F)cc1 |  | 506 | resazurin | MIC | 12.6 µg/mL
Cc1nc2c(s1)C(=O)C(Nc1ccc(F)cc1)=C(Cl)C2=O |  | KCCM 11655 | broth dilution | MIC | 3.2 µg/mL
CCCCCCCCn1cc[n+](COCCCCOC[n+]2ccn(CCCCCCCC)c2)c1 |  | ATCC 6258 | agar diffusion | MIC100 | 9 µM
Clc1ccc(C(c2ccccc2)N2CCN(CCn3cncn3)CC2)cc1 |  |  | agar | MIC90 | >256 µg/mL
CCCCCCCCCCCCCCn1cc[n+](COCCCCOC[n+]2ccn(CCCCCCCCCCCCCC)c2)c1 |  | ATCC 6258 | agar diffusion | MIC100 | 28 µM
CCCc1ccc(NS(=O)(=O)c2ccc(CN(C)CC(O)(Cn3cncn3)c3ccc(F)cc3F)cc2)cc1 |  | 506 | resazurin | MIC | 1.2 µg/mL
COc1ccc(N2C(=O)CC(C)C2=O)cc1 |  | CCC 117-2000 | broth dilution / turbidity | MIC | 125 µg/mL
CCCCCCCCCCCCCCCCn1cc[n+](COCCOC[n+]2ccn(CCCCCCCCCCCCCCCC)c2)c1 |  | ATCC 6258 | agar diffusion | MIC100 | 27 µM
Cc1nc2c(s1)C(=O)C(Nc1ccc(C#N)cc1)=C(Cl)C2=O |  | KCCM 11655 | broth dilution | MIC | 12.5 µg/mL
Ic1ccc(-c2csc(N/N=C\c3cccc4ccccc34)n2)cc1 | 24 h | Clinical isolates |  | MIC | 2 µg/mL
C[C@@H]1CC(=O)N(c2ccc([N+](=O)[O-])cc2)C1=O |  | CCC 117-2000 | broth dilution / turbidity | MIC | 62.5 µg/mL
O=C(c1ccccc1)C(c1ccccc1)n1cnc2ccccc21 |  |  | agar | MIC90 | 128 µg/mL
CCCn1cc[n+](COCCCCCOC[n+]2ccn(CCC)c2)c1 |  | ATCC 6258 | agar diffusion | MIC100 | 2966 µM
CN(Cc1ccc(S(=O)(=O)Nc2ccccc2)cc1)CC(O)(Cn1cncn1)c1ccc(F)cc1F |  | 506 | resazurin | MIC | 1.6 µg/mL
CCCCCCCCCCn1cc[n+](COCCCCCCOC[n+]2ccn(CCCCCCCCCC)c2)c1 |  | ATCC 6258 | agar diffusion | MIC100 | 2 µM
c1ccc(C(c2ccccc2)n2cnc3ccccc32)cc1 |  |  | agar | MIC90 | >256 µg/mL
Cc1nc2c(s1)C(=O)C(Nc1ccc(Cl)cc1)=C(Cl)C2=O |  | KCCM 11655 | broth dilution | MIC | 50 µg/mL
CC1CC(=O)N(CCCCc2ccccc2)C1=O |  | CCC 117-2000 | broth dilution / turbidity | MIC | 125 µg/mL
CCCCCn1cc[n+](COCCCOC[n+]2ccn(CCCCC)c2)c1 |  | ATCC 6258 | agar diffusion | MIC100 | 1379 µM
C[C@@H]1C(=O)N(c2ccccc2)C(=O)[C@@H]1C |  | CCC 117-2000 | broth dilution / turbidity | MIC | 62.5 µg/mL
CCCCCCCCCCCCCCCCn1cc[n+](COCCCCOC[n+]2ccn(CCCCCCCCCCCCCCCC)c2)c1 |  | ATCC 6258 | agar diffusion | MIC100 | 6 µM
C[C@@H]1CC(=O)N(c2ccccc2)C1=O |  | CCC 117-2000 | broth dilution / turbidity | MIC | 62.5 µg/mL
C=CCc1ccc(O)c(OC)c1 |  | 191 | turbidity | MIC90 | 500 µg/mL
O=C(c1ccccc1)C(c1ccccc1)n1nnc2ccccc21 |  |  | broth dilution | MFC | >256 µg/mL
Cc1ccc(NC2=C(Cl)C(=O)c3nc(C)sc3C2=O)cc1 |  | KCCM 11655 | broth dilution | MIC | 6.3 µg/mL
CN(Cc1ccc(NS(=O)(=O)c2ccccc2)cc1)CC(O)(Cn1cncn1)c1ccc(F)cc1F |  | 506 | resazurin | MIC | 10.6 µg/mL
COc1ccc(C(c2ccc(OC)cc2)n2cncn2)cc1 |  |  | agar | MIC90 | >256 µg/mL

For reference, 2 entries again:

smiles | conditions | strain or isolate | read by | read-out | result
CCCCCCCCCCn1cc[n+](COCCCCCCOC[n+]2ccn(CCCCCCCCCC)c2)c1 |  | ATCC 6258 | agar diffusion | MIC100 | 2 µM
CC1CC(=O)N(c2ccc(Cl)cc2)C1=O |  | CCC 117-2000 | broth dilution / turbidity | MIC | 125 µg/mL